Anti-infective test results gathered from many reports (values: NIAID ChemDB through PubChem).

Shared fields: enzyme or target tests

Fold resistance has wild type as its base.

structure,changes,protein,tested at,read-out,method,strain,species,value
O=C(O)C(Cl)(Cl)P(=O)(O)O,-,DNA polymerase,-,IC50,-,-,Herpes simplex virus 1,>100 µM
CS(=O)(=O)c1cc(=O)[nH]c(=O)[nH]1,-,Uracil phosphoribosyltransferase,2000 µM,inhibition,-,RH,Toxoplasma gondii,<5%
O=C(Nc1nnc(NCC2CCCCC2)s1)c1ccc2c(c1)C(=O)OC2=O,-,Polymerase,-,IC50,-,-,Human cytomegalovirus,<25 µM
C=CCN(C(=O)OCc1ccc([N+](=O)[O-])cc1)C1CCN(CC[C@](C)(CN(C)S(=O)(=O)c2ccccc2)c2ccccc2)CC1,CCR5-W86A,CCR5,-,fold resistance,radiometric,-,-,76.5
COc1ccccc1C(=O)Nc1nnc(NCCCNC2CCCCC2)s1,-,Polymerase,-,IC50,-,-,Human cytomegalovirus,>25 µM
Nc1nc2c(ncn2[C@H]2CC[C@@H](COP(=O)(O)OP(=O)(O)OP(=O)(O)O)O2)c(=O)[nH]1,RT-P95A,Reverse transcriptase,-,IC50,nucleotide incorporation / radiometric,-,HIV,1.4 µM
Nc1ccnc(=S)[nH]1,-,Uracil phosphoribosyltransferase,2000 µM,inhibition,-,RH,Toxoplasma gondii,<10%
CC(C)c1cc(C(C)C)c(C(=O)Nc2nnc(NCCc3c[nH]c4ccccc34)s2)c(C(C)C)c1,-,Polymerase,-,IC50,-,-,Human cytomegalovirus,>25 µM
CC(C)=CCOc1cc(NC(=S)c2ccoc2C)ccc1Cl,RT-N137Q,Reverse transcriptase,-,fold resistance,nucleotide incorporation / radiometric,-,HIV,0.25
Nc1cc(=O)[nH]c(=S)[nH]1,-,Uracil phosphoribosyltransferase,-,IC50,-,RH,Toxoplasma gondii,>2000 µM
O=C(O)C(F)(F)P(=O)(O)O,-,DNA polymerase,-,IC50,-,-,Epstein-Barr virus,65 µM
CO[P@](=O)(c1cc(C)cc(/C=C/C#N)c1)c1c(C(N)=O)[nH]c2ccc(Cl)c(F)c12,Y181C,Reverse transcriptase,-,IC50,-,-,HIV,0.526 µM
O=P(O)(O)C(F)(F)P(=O)(O)O,-,DNA polymerase,-,IC50,-,-,Epstein-Barr virus,>100 µM
O=c1ccn(Cc2ccccc2)c(=O)[nH]1,-,Uracil phosphoribosyltransferase,-,IC50,-,RH,Toxoplasma gondii,>2000 µM
CCOc1ccc2ccccc2c1C(=O)Nc1nnc(NCCc2c[nH]c3ccccc23)s1,-,Polymerase,-,IC50,-,-,Human cytomegalovirus,<25 µM
O=C(O)C(F)(Br)P(=O)(O)O,-,DNA polymerase,100 µM,inhibition,-,-,Epstein-Barr virus,43%
O=C(c1ccccc1Cl)N1C[C@H](CN2CCC(O)(CCCc3ccc(-c4nn[nH]n4)cc3)CC2)[C@@H](c2ccccc2)C1,CCR5-W86A,CCR5,-,fold resistance,radiometric,-,-,10.9
O=C(O)Cc1cc(=O)[nH]c(=O)[nH]1,-,Uracil phosphoribosyltransferase,-,IC50,-,RH,Toxoplasma gondii,>2000 µM
CC(C)C(=O)N1C[C@H](CN2CCC(c3ccccc3)CC2)[C@@H](c2ccccc2)C1,CCR5-D276A,CCR5,-,fold resistance,radiometric,-,-,2.92
O=c1cc(Cc2ccccc2)[nH]c(=S)[nH]1,-,Uracil phosphoribosyltransferase,-,IC50,-,RH,Toxoplasma gondii,>2000 µM
CC(C)c1cc(C(C)C)c(C(=O)Nc2nnc(NC[C@@H]3CCC4CC3C4(C)C)s2)c(C(C)C)c1,-,Polymerase,-,IC50,-,-,Human cytomegalovirus,>25 µM
CC(Cl)(C(=O)O)P(=O)(O)O,-,DNA polymerase,-,IC50,-,-,Epstein-Barr virus,>100 µM
O=C1NC(=O)C(Cc2ccc(OCc3ccccc3)cc2)C(=O)N1,-,Uracil phosphoribosyltransferase,-,IC50,-,RH,Toxoplasma gondii,>2000 µM
O=P(O)(O)C(Cl)(Cl)P(=O)(O)O,-,DNA polymerase,-,IC50,-,-,Epstein-Barr virus,>100 µM
CC[C@H]1C(=O)Nc2ccc(F)cc2N1C(=O)OC(C)C,RT-N137K,Reverse transcriptase,-,IC50,nucleotide incorporation / radiometric,-,HIV,0.02 µM
O=c1cn[nH]c(=S)[nH]1,-,Uracil phosphoribosyltransferase,-,IC50,-,RH,Toxoplasma gondii,>2000 µM
O=C(O)C(F)P(=O)(O)O,-,DNA polymerase,-,IC50,-,-,Epstein-Barr virus,14 µM
CCOC(=O)c1c[nH]c(=O)[nH]c1=O,-,Uracil phosphoribosyltransferase,-,IC50,-,RH,Toxoplasma gondii,>2000 µM
CC(F)(C(=O)O)P(=O)(O)O,-,DNA polymerase,100 µM,inhibition,-,-,Epstein-Barr virus,42%

A second listing of 3 rows from above:

structure	changes	protein	tested at	read-out	method	strain	species	value
CC(C)=CCOc1cc(NC(=S)c2ccoc2C)ccc1Cl	RT-N137Q	Reverse transcriptase	-	fold resistance	nucleotide incorporation / radiometric	-	HIV	0.25
Nc1nc2c(ncn2[C@H]2CC[C@@H](COP(=O)(O)OP(=O)(O)OP(=O)(O)O)O2)c(=O)[nH]1	RT-P95A	Reverse transcriptase	-	IC50	nucleotide incorporation / radiometric	-	HIV	1.4 µM
O=c1cc(Cc2ccccc2)[nH]c(=S)[nH]1	-	Uracil phosphoribosyltransferase	-	IC50	-	RH	Toxoplasma gondii	>2000 µM

Percent inhibition refers to the dose given; in toxicity tests it is the harm to the cells. An empty or dashed field is not shown. Conditions beyond the fields shown may differ between rows. ICn: concentration for n% inhibition.